Results of unrelated studies side by side (data: NIAID ChemDB).

All rows: tests in culture; agent: HIV-1; endpoint: inhibition

a–b is a range or a potency band. Conditions beyond the fields shown may differ between rows. An empty or dashed field is not shown. Inhibition is in % at the dose shown (toxicity tests: loss of growth or viability).

smiles,tested at,setting,cell line,strain,method,value
O=C(NCCc1ccccc1)Nc1ccccc1,1 µg/mL,,MT-4,,cytopathic effect / XTT,0%
O=C(C(=O)N1CCN(C(=O)c2ccccc2)CC1)c1c[nH]c2cccc([N+](=O)[O-])c12,10 µM,,MT-2,BRU,RT activity,88.3%
Cc1cn([C@H]2C[C@H](N=[N+]=[N-])[C@@H](COP(=O)(O)OCCO[C@H]3O[C@H](CO)[C@@H](O)[C@H](O)[C@@H]3O)O2)c(=O)[nH]c1=O,5 µM,22 d,CEM,LAV-Bru,RT activity,0%
COc1cccc2[nH]cc(C(=O)C(=O)N3CCN(C(=O)c4ccccn4)C[C@H]3C)c12,10 µM,,HeLa + HELA CD4+/CCR5,,luciferase,>98%
CN1CCN(C(=S)NCCc2ccccc2)CC1,10 µg/mL,,MT-4,,cytopathic effect / XTT,0%
COc1cccc2c(C(=O)C(=O)N3CCN(C(=O)c4ccccc4)CC3)c[nH]c12,10 µM,,HeLa + HELA CD4+/CCR5,,luciferase,>98%
CN1C(=O)[C@@H](Cc2ccccc2)NC1=S,1 µg/mL,,MT-4,,cytopathic effect / XTT,0%
C[C@H]1[C@H](O)[C@@H](C)/C=C/C=C/C=C/C=C/C=C/C=C/C=C/[C@H](O[C@@H]2O[C@H](C)[C@@H](O)[C@H](N)[C@@H]2O)C[C@@H]2O[C@](O)(C[C@@H](O)C[C@@H](O)CC[C@H](O)[C@@H](O)C[C@@H](O)CC(=O)O[C@H]1C)C[C@H](O)[C@H]2C(=O)O,2.3 µM,,PBMC,MDR1385 Primary isolate X4 (SI),p24 / RT activity,90%
COC(=O)c1cccc2c(C(=O)C(=O)N3CCN(C(=O)c4ccccc4)C(C)C3)c[nH]c12,10 µM,,HeLa + HELA CD4+/CCR5,,luciferase,>98%
Cc1ccc(-c2ccc3c(c2)C=C(C(=O)Nc2ccc(C[N+](C)(C)C4CCOCC4)cc2)CCC3)cc1,1 µM,,PBMC,COT9 CLADE C,p24,87.3%
CC(=O)CCC(=O)NCCCOCCOCCCNC(=O)CNC(=O)[C@H](CS)NC(=O)[C@@H](NC(=O)[C@@H](NC(=O)[C@H](CO)NC(=O)[C@@H](N)CS)C(C)C)[C@@H](C)O,0.66 µM,,PBMC(PHA STIM.) + PBMC,BaL,p24,34%
O=C(C(=O)N1CCN(C(=O)c2cccc3ccsc23)CC1)c1c[nH]c2cccc(Cl)c12,10 µM,,HeLa + HELA CD4+/CCR5,,luciferase,>98%
CC1(C)[C@@H](O[C@H]2O[C@H](C(=O)O)[C@@H](O)[C@H](O)[C@H]2O[C@@H]2O[C@H](C(=O)O)[C@@H](O)[C@H](O)[C@H]2O)CC[C@]2(C)[C@H]3C(=O)C=C4[C@@H]5C[C@@](C)(C(=O)O)CC[C@]5(C)CC[C@@]4(C)[C@]3(C)CC[C@@H]12,1200 µM,9 d,MOLT-4,IIIB,antigen,94.1%
COc1ccc(CCNC(=S)Nc2nccs2)cc1OC,10 µg/mL,,MT-4,,cytopathic effect / XTT,54–58%
CCCCCCCCCCCCCCCCOP(=O)(OCCO[C@@H]1O[C@H](CO)[C@@H](O)[C@H](O)[C@@H]1O)OC[C@H]1O[C@@H](n2cc(C)c(=O)[nH]c2=O)C[C@@H]1N=[N+]=[N-],1 µM,22 d,CEM,LAV-Bru,RT activity,0%
CC(=O)N1C(=O)[C@@H](Cc2ccccc2)NC1=S,1 µg/mL,,MT-4,,cytopathic effect / XTT,5%
N=C1Sc2ccccc2C2=NCCCN12,1.92 µM,,PBMC,92HT599,ELISA,90%
CC(C)[C@H](NC(=O)[C@H](CO)NC(=O)[C@@H](N)CS)C(=O)N[C@H](C(=O)N[C@@H](CS)C(=O)NCC(=O)O)[C@@H](C)O,1.32 µM,,PBMC(PHA STIM.) + PBMC,BaL,p24,30%
COC(=O)[C@H]1[C@@H]2C[C@@H](O[C@@H]3O[C@H](C)[C@@H](O)[C@H](N)[C@@H]3O)/C=C/C=C/C=C/C=C/C=C/C=C/C=C/[C@H](C)[C@@H](O)[C@H](C)[C@H](C)OC(=O)C[C@H](O)C[C@H](O)[C@@H](O)CC[C@H](O)C[C@H](O)C[C@](O)(C[C@@H]1O)O2,10 µg/mL,,H9,IIIB,p24 / antigen,43%
S=C(NCCc1ccccc1)N1CCOCC1,10 µg/mL,,MT-4,,cytopathic effect / XTT,9%
O=c1oc2cc(O)c(O)cc2c(O)c1-c1coc2c1c(=O)oc1cc(O)c(O)cc12,5 µM,,MT-4,IIIB,MTT,50%
C[C@@H]1CN(C(=O)c2cccc(N)c2)CCN1C(=O)C(=O)c1c[nH]c2c(F)ccc(F)c12,10 µM,,HeLa + HELA CD4+/CCR5,,luciferase,>98%
CCCCCCCCCCCCCCCCOP(=O)(OC[C@H]1OC(O)[C@@H](O)[C@@H](O)[C@@H]1O)OC[C@H]1O[C@@H](n2cc(C)c(=O)[nH]c2=O)C[C@@H]1N=[N+]=[N-],1 µM,22 d,CEM,LAV-Bru,RT activity,22%
O=C(NCCc1ccccc1)Nc1nc2ccc(Cl)cc2s1,1 µg/mL,,MT-4,,cytopathic effect / XTT,0%
CO[C@]1(C)OC[C@H]([C@@H]2CC(=O)C[C@H](c3ccccc3)C23C(=O)OC(C)(C)OC3=O)O[C@@]1(C)OC,0.1 µM,,SupT1,NL4-3,MTT,>45%
Cc1ccc(C(=O)N2CCN(C(=O)C(=O)c3c[nH]c4ccccc34)CC2)cc1F,10 µM,,MT-2,BRU,RT activity,23.4%
O=C1[C@@H](Cc2ccccc2)NC(=S)N1c1ccccc1,100 µg/mL,,MT-4,,RT activity,98%

Repeating the first 4 entries:

smiles	tested at	setting	cell line	strain	method	value
O=C(NCCc1ccccc1)Nc1ccccc1	1 µg/mL		MT-4		cytopathic effect / XTT	0%
O=C(C(=O)N1CCN(C(=O)c2ccccc2)CC1)c1c[nH]c2cccc([N+](=O)[O-])c12	10 µM		MT-2	BRU	RT activity	88.3%
Cc1cn([C@H]2C[C@H](N=[N+]=[N-])[C@@H](COP(=O)(O)OCCO[C@H]3O[C@H](CO)[C@@H](O)[C@H](O)[C@@H]3O)O2)c(=O)[nH]c1=O	5 µM	22 d	CEM	LAV-Bru	RT activity	0%
COc1cccc2[nH]cc(C(=O)C(=O)N3CCN(C(=O)c4ccccn4)C[C@H]3C)c12	10 µM		HeLa + HELA CD4+/CCR5		luciferase	>98%